Results from patent US10059741B2 (priority 2015, dated 2018).
Several values for one entry are separate records, joined by “and”; a condition that tells them apart may be missing. Equal values may be shown once. Read-outs that look alike come from different tables or passages of the source.

Experiments:
H1N1 California/07/2009 [1] = format: cell-based, influenza A virus
H3N2 Perth/16/2009 [2] = format: cell-based, influenza A virus
H1N1 California/07/2009 [3] = format: cell-based, influenza A virus; remark: listed apart in the source
H3N2 Perth/16/2009 [4] = format: cell-based, influenza A virus; remark: listed apart in the source
in vitro = conditions: dog
[5] = tested on: influenza virus, various viral strains; format: cell-based
[6] = Cytopathic effect/toxicity (Visual), MDCK cells, read-out: EC50 (μM) H1N1 California/07/2009
[7] = Cytopathic effect/toxicity (Visual), MDCK cells
[8] = Cytopathic effect/toxicity (Neutral red), MDCK cells, read-out: EC50 (μM) H1N1 California/07/2009
[9] = Influenza A H1N1 California/07/2009, Neutral Red, read-out: EC50
[10] = Cytopathic effect/toxicity (Neutral red), MDCK cells
[11] = CC50 (μM) H1N1 California/07/2009, Cell cytotoxicity (CC), run with H1N1 California/07/2009
[12] = CC50 (μM) H3N2 Perth/16/2009, Cell cytotoxicity (CC), run with H3N2 Perth/16/2009
[13] = CC50, MDCK cells, run with Influenza A H1N1 California/07/2009, Neutral Red
[14] = CC50, MDCK cells, run with Influenza A H1N1 California/07/2009, Visual
[15] = read-out: EC50 (μM) H1N1 California/07/2009
[16] = CC50, MDCK cells, run with Influenza A H1N1 California/07/2009, VYR/Neutral Red
[17] = CC50, MDCK cells, run with Influenza A H3N2 Perth/16/2009, Neutral Red
[18] = CC50, MDCK cells, run with Influenza A H3N2 Perth/16/2009, VYR/Neutral Red

`CCCC[C@H](NC(C)=O)C(=O)N[C@@H](CC(=O)O)C(=O)N[C@H](C(=O)N[C@@H](CC(N)=O)C(=O)N[C@@]1(C)CCCC=CCCC[C@@](C)(C(=O)N[C@@H](CC(C)C)C(=O)N[C@@H](C)C(=O)N[C@H](C(=O)N[C@@H](CCC(=O)O)C(=O)N[C@@H](C)C(=O)N[C@@H](C)C(=O)N[C@@H](C)C(=O)N[C@@H](C)C(N)=O)C(C)C)NC(=O)[C@H](CC(C)C)NC(=O)[C@H](CC(C)C)NC(=O)[C@H]([C@@H](C)O)NC1=O)C(C)C` [SP-15] gave an EC50 (H1N1 California/07/2009 [1]; [6]) of 25 to 50 µM, an EC50 (H1N1 California/07/2009 [1]; Influenza A H1N1 California/07/2009, Visual, read-out: EC50) of 32 µM and an EC50 (H3N2 Perth/16/2009 [2]; [7]) of 25 to 50 µM. The EC50 (H1N1 California/07/2009 [3]; [8]) was 25 to 50 µM, the EC50 (H1N1 California/07/2009 [3]; [9]) was 28 µM and 31 µM and the EC50 (H3N2 Perth/16/2009 [4]; [10]) was 25 to 50 µM. For the same molecule, the CC50 (in vitro; [11]) was > 100 µM, the CC50 (in vitro; [12]) was > 100 µM and the CC50 (in vitro; [13]) was > 100 µM. The CC50 (in vitro; [14]) was > 100 µM.
In the case of `CCCC[C@H](NC(C)=O)C(=O)N[C@@H](CC(=O)O)C(=O)N[C@H](C(=O)N[C@@H](CC(N)=O)C(=O)N[C@@]1(C)CCCC=CCCC[C@@](C)(C(=O)N[C@@H](CC(C)C)C(=O)N[C@@H](C)C(=O)N[C@H](C(=O)N[C@@H](CO)C(=O)N[C@@H](C)C(=O)N[C@@H](C)C(=O)N[C@@H](C)C(=O)N[C@@H](C)C(N)=O)C(C)C)NC(=O)[C@H](CC(C)C)NC(=O)[C@H](CC(C)C)NC(=O)[C@H]([C@@H](C)O)NC1=O)C(C)C` [SP-13], the EC50 (H1N1 California/07/2009 [1]; [6]) is reported as 25 to 50 µM, the EC50 (H3N2 Perth/16/2009 [2]; [7]) is reported as > 50 µM and the EC50 (H1N1 California/07/2009 [3]; [8]) is reported as 25 to 50 µM. For the same molecule, the EC50 (H3N2 Perth/16/2009 [4]; [10]) was > 50 µM, the CC50 (in vitro; [11]) was > 100 µM and the CC50 (in vitro; [12]) was > 100 µM. The CC50 (in vitro; [13]) was > 100 µM and the CC50 (in vitro; [14]) was > 100 µM.
Molecule `CCCC[C@H](NC(C)=O)C(=O)N[C@@H](CC(=O)O)C(=O)N[C@H](C(=O)N[C@@H](CC(N)=O)C(=O)N[C@@]1(C)CCCC=CCCC[C@@](C)(C(=O)N[C@@H](CC(C)C)C(=O)N[C@@H](C)C(=O)N[C@H](C(=O)N[C@@H](C)C(=O)N[C@@H](C)C(=O)N[C@@H](C)C(=O)N[C@@H](C)C(=O)N[C@@H](C)C(N)=O)C(C)C)NC(=O)[C@H](CC(C)C)NC(=O)[C@H](CC(C)C)NC(=O)[C@H]([C@@H](C)O)NC1=O)C(C)C` [SP-9] has an EC50 (H1N1 California/07/2009 [1]; [6]) of 10 to 25 µM, an EC50 (H3N2 Perth/16/2009 [2]; [7]) of 25 to 50 µM and an EC50 (H1N1 California/07/2009 [3]; [8]) of 10 to 25 µM. The EC50 (H1N1 California/07/2009 [3]; [9]) was 22 µM and 41 µM, the EC50 (H3N2 Perth/16/2009 [4]; [10]) was 25 to 50 µM and the CC50 (in vitro; [11]) was > 100 µM. The CC50 (in vitro; [12]) was > 100 µM, the CC50 (in vitro; [13]) was > 100 µM and the CC50 (in vitro; [14]) was > 100 µM.
In the case of `CCCC[C@H](NC(C)=O)C(=O)N[C@@H](CC(=O)O)C(=O)N[C@H](C(=O)N[C@@H](CC(N)=O)C(=O)N[C@@]1(C)CCCC=CCCC[C@@](C)(C(=O)N[C@@H](CC(C)C)C(=O)N[C@@H](C)C(=O)N[C@H](C(=O)N[C@@H](C)C(=O)N[C@@H](C)C(=O)N[C@@H](CCC(N)=O)C(=O)N[C@@H](C)C(=O)N[C@@H](C)C(N)=O)C(C)C)NC(=O)[C@H](CC(C)C)NC(=O)[C@H](CC(C)C)NC(=O)[C@H]([C@@H](C)O)NC1=O)C(C)C` [SP-8], the EC50 (H1N1 California/07/2009 [1]; [15]) is reported as 10 to 25 µM, the EC50 (H3N2 Perth/16/2009 [2]) is reported as 25 to 50 µM and the EC50 (H1N1 California/07/2009 [3]; read-out: EC50) is reported as 19 µM and 38 µM. The EC50 (H1N1 California/07/2009 [3]; [15]) was 10 to 25 µM, the EC50 (H3N2 Perth/16/2009 [4]) was 25 to 50 µM and the CC50 (in vitro; [11]) was > 100 µM. For the same molecule, the CC50 (in vitro; [12]) was > 100 µM, the CC50 (in vitro; [13]) was > 100 µM and the CC50 (in vitro; [14]) was > 100 µM.
`CCCC[C@H](NC(C)=O)C(=O)N[C@@H](CC(=O)O)C(=O)N[C@H](C(=O)N[C@@H](CC(N)=O)C(=O)N[C@@]1(C)CCCC=CCCC[C@@](C)(C(=O)N[C@@H](CC(C)C)C(=O)N[C@@H](C)C(=O)N[C@H](C(=O)N[C@@H](CCC(N)=O)C(=O)N[C@@H](C)C(=O)N[C@@H](C)C(=O)N[C@@H](C)C(=O)N[C@@H](C)C(N)=O)C(C)C)NC(=O)[C@H](CC(C)C)NC(=O)[C@H](CC(C)C)NC(=O)[C@H]([C@@H](C)O)NC1=O)C(C)C` [SP-14] gave an EC50 (H1N1 California/07/2009 [1]; [6]) of 1.5 to 10 µM, an EC50 (H3N2 Perth/16/2009 [2]; [7]) of 25 to 50 µM and an EC50 (H1N1 California/07/2009 [3]; [8]) of 1.5 to 10 µM. For the same molecule, the EC50 (H3N2 Perth/16/2009 [4]; [10]) was 25 to 50 µM, the EC90 ([5]; Influenza A H1N1 California/07/2009, VYR/Neutral Red) was 29 µM and the EC90 ([5]; Influenza A H3N2 Perth/16/2009, VYR/Neutral Red) was 100 µM. The CC50 (in vitro; [11]) was > 100 µM, the CC50 (in vitro; [12]) was > 100 µM and the CC50 (in vitro; [13]) was > 100 µM. For the same molecule, the CC50 (in vitro; [16]) was > 100 µM, the CC50 (in vitro; [14]) was > 100 µM and the CC50 (in vitro; [17]) was > 100 µM. For the same molecule, the CC50 (in vitro; [18]) was > 100 µM.
For `CCCC[C@H](NC(C)=O)C(=O)N[C@@H](CC(=O)O)C(=O)N[C@H](C(=O)N[C@@H](CC(N)=O)C(=O)N[C@@]1(C)CCCC=CCCC[C@@](C)(C(=O)N[C@@H](CC(C)C)C(=O)N[C@@H](C)C(=O)N[C@H](C(=O)N[C@@H](CCC(=O)O)C(=O)N[C@@H](C)C(=O)N[C@@H](CCC(N)=O)C(=O)N[C@@H](C)C(=O)N[C@@H](C)C(N)=O)C(C)C)NC(=O)[C@H](CC(C)C)NC(=O)[C@H](CC(C)C)NC(=O)[C@H]([C@@H](C)O)NC1=O)C(C)C` [SP-12], the EC50 (H1N1 California/07/2009 [1]; [15]) was 1.5 to 10 µM, the EC50 (H3N2 Perth/16/2009 [2]) was 10 to 25 µM and the EC50 (H1N1 California/07/2009 [3]; [15]) was 1.5 to 10 µM. For the same molecule, the EC50 (H3N2 Perth/16/2009 [4]) was 10 to 25 µM, the CC50 (in vitro; [11]) was > 100 µM and the CC50 (in vitro; [12]) was > 100 µM. For the same molecule, the CC50 (in vitro; [13]) was > 100 µM, the CC50 (in vitro; [16]) was > 100 µM and the CC50 (in vitro; [14]) was > 100 µM. For the same molecule, the CC50 (in vitro; [17]) was > 100 µM and the CC50 (in vitro; [18]) was > 100 µM.
Work on `CCCC[C@H](NC(C)=O)C(=O)N[C@@H](CC(=O)O)C(=O)N[C@H](C(=O)N[C@@H](CC(N)=O)C(=O)N[C@@]1(C)CCCC=CCCC[C@@](C)(C(=O)N[C@@H](CC(C)C)C(=O)N[C@@H](C)C(=O)N[C@H](C(=O)N[C@@H](CCC(N)=O)C(=O)N[C@@H](C)C(=O)N[C@@H](CCC(N)=O)C(=O)N[C@@H](C)C(=O)N[C@@H](C)C(N)=O)C(C)C)NC(=O)[C@H](CC(C)C)NC(=O)[C@H](CC(C)C)NC(=O)[C@H]([C@@H](C)O)NC1=O)C(C)C` [SP-11] yielded an EC50 (H1N1 California/07/2009 [1]; [15]) of 1.5 to 10 µM, an EC50 (H3N2 Perth/16/2009 [2]) of 10 to 25 µM and an EC50 (H1N1 California/07/2009 [3]; [15]) of 1.5 to 10 µM. The EC50 (H3N2 Perth/16/2009 [4]) was 10 to 25 µM, the EC90 [5] was 21 µM and 26 µM and the CC50 (in vitro; [11]) was > 100 µM. For the same molecule, the CC50 (in vitro; [12]) was > 100 µM, the CC50 (in vitro; [13]) was > 100 µM and the CC50 (in vitro; [16]) was > 100 µM. For the same molecule, the CC50 (in vitro; [14]) was > 100 µM, the CC50 (in vitro; [17]) was > 100 µM and the CC50 (in vitro; [18]) was > 100 µM.
`CCCC[C@H](NC(C)=O)C(=O)N[C@@H](CC(=O)O)C(=O)N[C@H](C(=O)N[C@@H](CC(N)=O)C(=O)N[C@@]1(C)CCCC=CCCC[C@@](C)(C(=O)N[C@@H](CC(C)C)C(=O)N[C@@H](C)C(=O)N[C@H](C(=O)N[C@@H](CO)C(=O)N[C@@H](C)C(=O)N[C@@H](CCC(N)=O)C(=O)N[C@@H](C)C(=O)N[C@@H](C)C(N)=O)C(C)C)NC(=O)[C@H](CC(C)C)NC(=O)[C@H](CC(C)C)NC(=O)[C@H]([C@@H](C)O)NC1=O)C(C)C` [SP-10] gave an EC50 (H1N1 California/07/2009 [1]; read-out: EC50) of 32 µM, an EC50 (H1N1 California/07/2009 [1]; [15]) of 25 to 50 µM and an EC50 (H3N2 Perth/16/2009 [2]) of 25 to 50 µM. For the same molecule, the EC50 (H1N1 California/07/2009 [3]; read-out: EC50) was 35 µM and 32 µM, the EC50 (H1N1 California/07/2009 [3]; [15]) was 25 to 50 µM and the EC50 (H3N2 Perth/16/2009 [4]) was 25 to 50 µM. The CC50 (in vitro; [11]) was > 100 µM, the CC50 (in vitro; [12]) was > 100 µM and the CC50 (in vitro; [13]) was > 100 µM. The CC50 (in vitro; [14]) was > 100 µM.
